A mixed list of measured activities; the numbers were collected in NIAID ChemDB.

All rows: whole-cell or culture tests; organism: Candida tropicalis

A number after MIC or MFC names an inhibition level or a share of isolates.

compound	strain or isolate	dose	read by	conditions	read-out	value
C[C@@H]1CC(=O)N(c2ccccc2)C1=O	CCC 131-2000		broth dilution / turbidity		MIC	62.5 µg/mL
CC(C)(O)c1cn(-c2ccc([N+](=O)[O-])cc2)nn1	URM 4790	2048 µg/mL	broth dilution		inhibition	0%
CC[C@@H]([C@H](C)O)n1ncn(-c2ccc(N3CCN(c4ccc(OC[C@@H]5CO[C@@](Cn6cncn6)(c6ccc(F)cc6F)C5)cc4)CC3)cc2)c1=O	8664		broth dilution		MIC	0.03 µg/mL
C[C@@H]1CC(=O)N(c2ccc(F)cc2F)C1=O	CCC 131-2000		broth dilution / turbidity		MIC	62.5 µg/mL
Nc1ncccc1-c1cc(Cc2ccc(COc3ccccn3)cc2)no1	8685		broth dilution		MIC	0.06 µg/mL
C=CCc1ccc(OC)c(OC)c1	2803		turbidity		MIC90	340 µg/mL
CC1(C)O[C@H]2[C@H](O)[C@@H](N=[N+]=[N-])C=C(c3ccc(C=O)cc3)[C@H]2O1	C 131	15.6 µg/mL	broth dilution / turbidity		inhibition	0%
CC(C)(O)c1cn(-c2ccc3ccccc3c2)nn1	URM 4790	2048 µg/mL	broth dilution		inhibition	0%
O=C1C2=C(OC(CI)C2)C(=O)c2ccccc21	Clinical isolate		broth dilution		MIC	64 µg/mL
Cc1ccc(-n2cc(C(C)(C)O)nn2)cc1C	URM 4262	2048 µg/mL	broth dilution		inhibition	0%
C[C@H]1[C@H](O)[C@@H](C)/C=C/C=C/C=C/C=C/C=C/C=C/C=C/[C@H](O[C@@H]2O[C@H](C)[C@@H](O)[C@H](N)[C@@H]2O)C[C@@H]2O[C@](O)(C[C@@H](O)C[C@@H](O)CC[C@H](O)[C@@H](O)C[C@@H](O)CC(=O)O[C@H]1C)C[C@H](O)[C@H]2C(=O)O	CCC 131-2000		broth dilution / turbidity		MIC	0.48 µg/mL
OC(Cn1cncn1)(Cn1cncn1)c1ccc(F)cc1F	65 isolates			48 h	MIC90	>100 µg/mL
Cc1ccc(N2C(=O)CC(C)C2=O)cc1	CCC 131-2000		broth dilution / turbidity		MIC	250 µg/mL
CC(C)(O)c1cn(-c2cccc3ccccc23)nn1	URM 933	2048 µg/mL			inhibition	0%

The first 2 rows once more:

compound	strain or isolate	dose	read by	conditions	read-out	value
C[C@@H]1CC(=O)N(c2ccccc2)C1=O	CCC 131-2000		broth dilution / turbidity		MIC	62.5 µg/mL
CC(C)(O)c1cn(-c2ccc([N+](=O)[O-])cc2)nn1	URM 4790	2048 µg/mL	broth dilution		inhibition	0%

Inhibition is in % at the dose shown (toxicity tests: loss of growth or viability). Rows are shuffled and stem from different studies. An empty or dashed field is not shown.